Results from patent US20130065857A1, “NOVEL DXR INHIBITORS FOR ANTIMICROBIAL THERAPY” (Baylor College of Medicine, priority 2009, published 2013).
The structures given here were assigned with low confidence; some may be wrong.

Protein sequences, listed by entry. Tags and fused reporters are not part of them.
UniProt P45568, whole entry: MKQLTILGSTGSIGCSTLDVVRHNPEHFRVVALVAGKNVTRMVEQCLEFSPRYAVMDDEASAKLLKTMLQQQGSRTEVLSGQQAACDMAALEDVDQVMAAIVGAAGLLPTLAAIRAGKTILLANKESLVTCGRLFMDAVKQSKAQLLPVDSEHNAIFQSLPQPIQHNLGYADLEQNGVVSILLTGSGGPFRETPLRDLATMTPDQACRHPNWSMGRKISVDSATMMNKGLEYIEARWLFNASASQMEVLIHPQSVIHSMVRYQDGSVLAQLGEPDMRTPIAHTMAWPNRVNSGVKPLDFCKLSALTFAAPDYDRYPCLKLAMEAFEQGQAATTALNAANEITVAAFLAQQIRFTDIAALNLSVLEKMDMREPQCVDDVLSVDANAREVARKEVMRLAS

Molecular target: E. coli DXR (Escherichia coli, UniProt P45568)
Conditions: 100 µM

O=P(O)(O)Cc1ccccn1 [compound 17]
inhibition: 25.7%
